Measurements published in patent publication US5491135A (priority 1993, dated 1996).

Key:
[1] = tested on: simian varicella virus; test: Simian varicella virus infection in African green monkeys; settings: monkey, in vivo
Procedure: Fifteen African green monkeys were weighed and bled for clinical chemistry hematology baselines. […] Each of the 15 monkeys were infected with simian varicella virus by intratracheal inoculation of 3.7×10^4 plaque forming units (PFU) of simian varicella virus. […] Control monkeys, service as infection controls, received twice daily intravenous injections of phosphate buffered saline administered at 1.0 ml/kg of body weight. A second group of three monkeys received PALA at 50 mg/kg/day given by intravenous bolus injection into the saphenous vein. A third group was given a lower dose of PALA at 20 mg/kg/day administered in a similar manner. […]
Acyclovir received as a gift from Burroughs Wellcome was weighed out as a 200 mg quantity. […]
The clinical course of simian varicella infection was followed by collection of 2 ml of blood in heparin on day 2, 5, 7, 9 and 11 post-inoculation. […] When dried the number of plaques in each flask were counted and the mean number of plaques between the two paired flasks were determined and expressed as a quantitation of viremia per ml of blood.
Rash was evaluated daily using a subjective scoring of severity from ± to 4+. […] General clinical condition was assessed daily and anorexia noted by counting the number of food biscuits consumed daily. […]
At 14 and 21 days after virus inoculation, blood was taken and the serum separated for quantitation of antibody. […]

[2] = tested on: respiratory syncytial virus (RSV); test: RSV infection in cotton rats, lung titre; type: in vivo, cotton rat
From the text: 1. 50 to 100 g cotton rats of either sex inoculated i.n. with RS A2 (pool 8-28-92) on day 0.
2. On day +1 animals were given placebo or PALA as follows:
3. All animals killed on day +4 and their lungs tested for RSV levels.

SMILES | serum neutralizing antibody titer vs control [1] | Mean rank (Newman-Keuls) ([2]; PALA 3 mg/kg/day i.p.) | Mean rank (Newman-Keuls) ([2]; PALA 10 mg/kg/day i.p.) | Mean rank (Newman-Keuls) ([2]; ribavirin 90 mg/kg/day as printed)
Nc1nc2c(ncn2COCCO)c(=O)[nH]1 [Acyclovir, reference compound] | comparable | – | – | –
O=C(O)C[C@H](NC(=O)CP(=O)(O)O)C(=O)O [PALA] | comparable | 9.5000 | 4.6250 | –
NC(=O)c1ncn([C@@H]2O[C@H](CO)[C@@H](O)[C@H]2O)n1 [RIBAVIRIN, reference compound] | – | – | – | 8.5000
